The record followed here is patent US20160152689, “Compositions and methods for inhibiting thrombogenesis” (published 2016).

The target in this experiment is Factor XIa (FXIa), human, human, P03951 19-625. The experiment can be described thus: chromogenic substrate assay, inhibition of protease activity.

“BF01 (Fasxiator), native Kunitz-type protease inhibitor purified from Bungarus fasciatus venom”: the result is given as “binds”.

For the substance “BF02, isoform of BF01 from Bungarus fasciatus venom”, the result is “binds”.
